Only a part is listed here, and it is no random draw. Inconclusive results are not listed. Active and inactive are the calls of the source. Calls come from the whole dose curve; tested in A549 cells.
test: qHTS for Stage-Specific Inhibitors of Vaccinia Orthopoxvirus: Venus Reporter Primary qHTS; conditions: Vaccinia virus Venus reporter expression, fluorescence; at 36.5 µM (top of the series); note: nearly all actives have a fitted effect of over 30% in size
% is set by controls: 0 for no effect and ±100 for the full control effect.

SMILES | activity change, negative = inhibition
O=[As](O)(c1ccccc1)c1ccc(O)cc1 | inactive: 1.04%
CN(C)C(=O)c1cc([N+](=O)[O-])cc2c1-c1c(cc([N+](=O)[O-])cc1[N+](=O)[O-])C2=O | inactive: 4.97%
